The test system of the data set is MBP-Sin3 (Magnaporthe oryzae). As to the kind of experiment: EMSA. Particulars: recombinant protein, protein details: MBP (N-terminal, pMAL-c5X).

For at least one entry, the source does not settle the construct or the ends of the probe.

“GATGATGGCTCCGGATAAGAGGGCGCTGCAGATGCATCCATCTATCGGTAGTCTGCTTGGGTTGGAAGGCTTATTTTGTTGTTCTTTTTTCTTGGTACTG (double strand) [ATG13 promoter probe]”: the binding result (label: biotin (both strands)) is reported as “binds”.

As for “ACTGACACGAATGCAGCCTTTTGACAGAAGTCAACCTTCCTAGGCCACAAAACTCTTATTACTCTGCTTGCTCGGTCCTAGATCTGGACGTACAGTAGGT (double strand) [ATG1 promoter probe]”, the binding result (label: biotin (F strand, R name lacks biotin)) is on record as “binds”.

As for “TGGCAGAGGGTTTCTGCGCGTTGGACCGGGGCGCACCTGAAGACTGCCCATCGTTCAGTTGGCGCTGCCGGTTGTAGGTTTTGGTTAGGTCGCCGGTTGT (double strand) [ATG17 promoter probe]”, the binding result (label: biotin (both strands)) is given as “binds”.

Source of the values: article PMC10269650.
